{
  "source": "patent US20230357364A1",
  "settings_in_all_cases": "remark: other sources report otherwise",
  "key": {"[1]": {"target": "SARS-CoV-2 RBD (RBD-2) (SARS-CoV-2)", "test": "SPR"}, "[2]": {"target": "SARS-CoV-2 RBD (RBD-2) (SARS-CoV-2)", "test": "ELISA"}, "[3]": {"target": "SARS-CoV-2 RBD (RBD-2) (SARS-CoV-2)", "test": "SPR, Fc-captured IgG"}, "[4]": {"target": "SARS-CoV-2 RBD (RBD-2) (SARS-CoV-2)", "test": "flow, HeLa-ACE2, mAb:RBD=2:1"}, "[5]": {"target": "SARS-CoV-2 RBD (RBD-2) (SARS-CoV-2)", "test": "flow, HeLa-ACE2, mAb:RBD=4:1"}},
  "data": [
    {"binder": "L12.bP11A06 (antibody, V domains shown) VH: EVQLVESGGGLIQPGGSLRLSCAASGLTVSSNYMSWVRQAPGKGLEWVSVIYSGGSTFYADSVKGRFTISRDNSKNTLYLQMNSLRAEDTAVYYCARDLDVYGLDVWGQGTTVTVSS VL: DIVMTQSPSFLSASVGDRVTITCRASQGISSYLAWYQQKPGKAPKLLIYAASTLQSGVPSRFSGSGSGTEFTLTISSLQPEDFATYYCQQLNSYPPKFTFGPGTKVEIK", "values": [
      {"measurement": "Kd", "setting": "[1]", "value": 1.7, "unit": "nM"},
      {"measurement": "EC50", "setting": "[2]", "value": 0.042, "unit": "µg/mL"},
      {"measurement": "Kd", "setting": "[3]", "value": 5.92, "unit": "nM"},
      {"measurement": "koff", "setting": "[3]", "value": 0.00412, "unit": "s⁻¹"},
      {"measurement": "kon", "setting": "[3]", "value": 695000, "unit": "M⁻¹ s⁻¹"},
      {"measurement": "% inhibition of RBD binding to hACE2", "setting": "[4]", "value": 93.3, "unit": "%"},
      {"measurement": "MFI (RBD binding to cell surface)", "setting": "[4]", "value": 817},
      {"measurement": "% inhibition of RBD binding to hACE2", "setting": "[5]", "value": 95.9, "unit": "%"},
      {"measurement": "MFI (RBD binding to cell surface)", "setting": "[5]", "value": 528}
    ]}
  ]
}
